Ki data for one molecule are collected here from ChEMBL document CHEMBL1153435, “Harnessing nature's insight: design of aspartyl protease inhibitors from treatment of drug-resistant HIV to Alzheimer's disease” (J Med Chem, 2009).

For the assay, the target named is Protease (Human immunodeficiency virus 1, UniProt Q9YQ12). As to the kind of experiment: Inhibition of HIV1 protease.

On to `CC(C)(C)NC(=O)[C@@H]1C[C@@H]2CCCC[C@@H]2CN1C[C@@H](O)[C@H](Cc1ccccc1)NC(=O)[C@H](CC(N)=O)NC(=O)c1ccc2ccccc2n1`, for which the Ki stood at 1.4 nM.

The Ki is the dissociation constant of the complex between target and ligand, obtained from inhibition or displacement.
